Experimental data: patent US20140227335A1 (priority 2012, published 2014)
Like-named read-outs stand apart in the source and are kept apart here.

Key:
[1] = system: Jc1 HCVcc; experiment: HCVcc infection assay (Gluc reporter, Huh-7.5 cells); format: cell-based, HCV
[2] = system: HIV-1; experiment: Drug resistance study in freshly activated human PBMCs; conditions: freshly activated human PBMCs (2 donors), 12 days (data not shown)
[3] = system: VSV-Gpp; experiment: VSV-Gpp infectivity after PD pre-treatment (spinoculation of Huh-7.5 cells); format: cell-based, HIV lentivirus pseudotyped with VSV-G; conditions: for IC50: read-out: IC50 for VSV-Gpp
[4] = system: primary isolates of HIV and SIV; experiment: HIV-1, HIV-2, SIV infectivity assays in TZM-bl cells (all isolates, summary); format: cell-based
[5] = system: VSV-Gpp; experiment: VSV-Gpp virion lysis (RNase A, viral RNA by qRT-PCR); set-up: species or system HIV lentivirus pseudotyped with VSV-G
[6] = 150 μM PD, 37° C., 30 min, RNase A

With N=C1Sc2ccccc2C2=NCCCN12 [PD, PD 404,182] the selectivity index (CC50/IC50) for HCV [1] was over 27, the “emergence of viral resistance” value [2] was “no emergence of viral resistance was observed” and the “loss of viral infectivity” value ([3]; less than 5 min of incubation with virus) was over 99%. The IC50 ([3]; virus stock diluted 5-fold in fresh complete growth medium) was 4600 nM, the IC50 ([3]; virus stock diluted 500-fold in fresh complete growth medium) was 500 nM and the therapeutic index / selectivity index (CC50/IC50) for HIV [4] was over 300. For the same molecule, the “RNase-mediated degradation of VSV-Gpp RNA relative to DMSO-treated virus” value [5, 6] was 30 fold, the “VSV-Gpp RNA remaining” value [5, 6] was 3.7% and the “virions lysed (genomic RNA release)” value ([5]; 300 μM PD, 5 min virus-PD pre-incubation) was 40%.
